Laboratory results from patent US9625458B2, “Biosensor” (priority 2002, dated 2017).
Positions count from the first letter of the chain named. Names and notes keep the numbering of the source.

B1: arabinose BP L253C Acrylodan (conjugate, UniProt P02924 24-329, looked up, variant L253C)
L-arabinose-binding …: ENLKLGFLVKQPEEPWFQTEWKFADKAGKDLGFEVIKIAVPDGEKTLNAIDSLAASGAKGFVICTPDPKLGSAIVAKARGYDMKVIAVDDQFVNAKGKPMDTVPLVMMAATKIGERQGQELYKEMQKRGWDVKESAVMAITANELDTARRRTTGSMDALKAAGFPEKQIYQVPTKSNDIPGAFDAANSMLVQHPEVKHWLIVGMNDSTVLGGVRATEGQGFKAADIIGIGINGVDAVSELSKAQATGFYGSLCPSPDVHGYKSSEMLYNWVAKDVEPPKFTEVTDVVLITRDNFKEELEKKGLGGK
modifications: acrylodan conjugate
B2: arabinose BP L253C NBD (conjugate, UniProt P02924 24-329, looked up, variant L253C)
L-arabinose-binding …: B1 L-arabinose-binding …
modifications: NBD label
B3: arabinose BP L298C JPW4039 (conjugate, UniProt P02924 24-329, looked up, variant L298C)
L-arabinose-binding …: B1 L-arabinose-binding … with C253L, L298C
modifications: JPW4039 dye label
B4: arabinose BP L253C Fluoresecin (conjugate, UniProt P02924 24-329, looked up, variant L253C)
L-arabinose-binding …: B1 L-arabinose-binding …
modifications: fluorescein conjugate
B5: histidine BP V163C NBD (conjugate, UniProt P0AEU0 23-260, looked up, variant V163C)
Histidine-binding periplasmic …: AIPQNIRIGTDPTYAPFESKNSQGELVGFDIDLAKELCKRINTQCTFVENPLDALIPSLKAKKIDAIMSSLSITEKRQQEIAFTDKLYAADSRLVVAKNSDIQPTVESLKGKRVGVLQGTTQETFGNEHWAPKGIEIVSYQGQDNIYSDLTAGRIDAAFQDECAASEGFLKQPVGKDYKFGGPSVKDEKLFGVGTGMGLRKEDNELREALNKAFAEMRADGTYEKLAKKYFDFDVYGG
modifications: NBD dye conjugate
B6: histidine BP Y88C Acrylodan (conjugate, UniProt P0AEU0 23-260, looked up, variant Y88C)
Histidine-binding periplasmic …: B5 Histidine-binding periplasmic … with Y88C, C163V
modifications: acrylodan conjugate
B7: histidine BP Y230C NBD (conjugate, UniProt P0AEU0 23-260, looked up, variant Y230C)
Histidine-binding periplasmic …: B5 Histidine-binding periplasmic … with C163V, Y230C
modifications: NBD label
B8: histidine BP F231C NBD (conjugate, UniProt P0AEU0 23-260, looked up, variant F231C)
Histidine-binding periplasmic …: B5 Histidine-binding periplasmic … with C163V, F231C
modifications: NBD dye conjugate
B9: histidine BP F231C Acrylodan (conjugate, UniProt P0AEU0 23-260, looked up, variant F231C)
Histidine-binding periplasmic …: B5 Histidine-binding periplasmic … with C163V, F231C
modifications: acrylodan label
B10: histidine BP Y230C Acrylodan (conjugate, UniProt P0AEU0 23-260, looked up, variant Y230C)
Histidine-binding periplasmic …: B5 Histidine-binding periplasmic … with C163V, Y230C
modifications: acrylodan label
B11: phosphate BP A225C JPW4039 (conjugate, UniProt P0AG82 26-346, looked up, variant A225C)
Phosphate-binding protein PstS: EASLTGAGATFPAPVYAKWADTYQKETGNKVNYQGIGSSGGVKQIIANTVDFGASDAPLSDEKLAQEGLFQFPTVIGGVVLAVNIPGLKSGELVLDGKTLGDIYLGKIKKWDDEAIAKLNPGLKLPSQNIAVVRRADGSGTSFVFTSYLAKVNEEWKNNVGTGSTVKWPIGLGGKGNDGIAAFVQRLPGAIGYVEYAYAKQNNLAYTKLISADGKPVSPTEENFCNAAKGADWSKTFAQDLTNQKGEDAWPITSTTFILIHKDQKKPEQGTEVLKFFDWAYKTGAKQANDLDYASLPDSVVEQVRAAWKTNIKDSSGKPLY
modifications: JPW4039 label
B12: phosphate BP A225C JPW4045 (conjugate, UniProt P0AG82 26-346, looked up, variant A225C)
Phosphate-binding protein PstS: B11 Phosphate-binding protein PstS
modifications: JPW4045 label
B13: phosphate BP A225C NBD (conjugate, UniProt P0AG82 26-346, looked up, variant A225C)
Phosphate-binding protein PstS: B11 Phosphate-binding protein PstS
modifications: NBD conjugate
B14: phosphate BP A225C JPW4042 (conjugate, UniProt P0AG82 26-346, looked up, variant A225C)
Phosphate-binding protein PstS: B11 Phosphate-binding protein PstS
modifications: JPW4042 dye conjugate
B15: phosphate BP A225C Fluorescein (conjugate, UniProt P0AG82 26-346, looked up, variant A225C)
Phosphate-binding protein PstS: B11 Phosphate-binding protein PstS
modifications: fluorescein label
B16: phosphate BP A225C Acrylodan (conjugate, UniProt P0AG82 26-346, looked up, variant A225C)
Phosphate-binding protein PstS: B11 Phosphate-binding protein PstS
modifications: acrylodan conjugate

Assay: Fluorescence emission spectra without and with saturating ligand (wavelength shift, ΔIstd, ΔRmax)
Conditions: emission maximum, absence of ligand
Procedure, shortened: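 Emission spectra of bPBP–fluorophore conjugates (50–1000 nM protein, 25 °C, stirred) recorded without and with saturating ligand, using fluorophore-specific excitation. Wavelength shift, ΔIstd (intensity change at the mid-point wavelength) and ΔRmax (maximal ratiometric change over enumerated band pairs, 2 nm steps, 10 nm width) derived.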

| Molecule | λmax,apo (nm) |
| --- | --- |
| B1 | 482 |
| B2 | 539 |
| B3 | 591 |
| B4 | 519 |
| B5 | 542 |
| B6 | 491 |
| B7 | 535 |
| B8 | 545 |
| B9 | 524 |
| B10 | 523 |

Same assay, conditions: emission maximum, saturating ligand (ligand column)

| Molecule | λmax,sat (nm) |
| --- | --- |
| B1 | 495 |
| B2 | 539 |
| B3 | 591 |
| B4 | 515 |
| B5 | 543 |
| B6 | 493 |
| B7 | 534 |
| B8 | 542 |
| B9 | 525 |
| B10 | 522 |

Same assay, conditions: standard intensity change, unbound vs ligand-saturated

| Molecule | ΔIstd |
| --- | --- |
| B1 | 0.05 |
| B2 | 0.41 |
| B3 | 0.42 |
| B4 | 0.24 |
| B5 | 0.17 |
| B6 | 0.03 |
| B7 | 0.09 |
| B8 | 0.07 |
| B9 | 0.01 |
| B10 | 0.02 |

Same assay, conditions: standard ratiometric change, unbound vs ligand-saturated

| Molecule | ΔRmax |
| --- | --- |
| B1 | 1.81 |
| B2 | 1.66 |
| B3 | 0.65 |
| B4 | 2.71 |
| B5 | 1.32 |
| B6 | 0.30 |
| B7 | 0.20 |
| B8 | 0.19 |
| B9 | 0.56 |
| B10 | 0.18 |

Same assay, conditions: wavelength of emission maximum, absence of ligand

| Molecule | λmax,apo (nm) |
| --- | --- |
| B11 | 591 |
| B12 | 621 |
| B13 | 544 |
| B14 | 615 |
| B15 | 522 |
| B16 | 503 |

Same assay, conditions: wavelength of emission maximum, saturating ligand

| Molecule | λmax,sat (nm) |
| --- | --- |
| B11 | 601 |
| B12 | 633 |
| B13 | 554 |
| B14 | 628 |
| B15 | 521 |
| B16 | 502 |
